Measurements as given in article PMC8044140 (Communications Biology, 2021).
For at least one entry, the source does not settle the construct or the ends of the probe.

Target: PefR H114A (Streptococcus agalactiae) (UniProt Q8E4J9)
Experiment: fluorescence polarization
Conditions: hemin added; FP: 40 mM HEPES/Na pH 7.4, 500 mM NaCl, 10% glycerol, 10 nM DNA, room temperature; recombinant protein; protein details: C-terminal HRV3C site-6xHis, removed; label: 5'-FAM on antisense strand

Work on “GCTATTATAAAATAGTTCTCACGATAACTAAAATAATG (double strand) [pefAB operator 38 bp]” yielded a Kd of 25 nM.
